Experimental data as given in PMC9642902.
“And” between values parts separate entries of the source, which are not always exact repeats. Identical values can stand only once. Like-named read-outs stand apart in the source and are kept apart here.

What was measured:
potato ATG8-2.2 (potato) [1] = assay: ITC
potato ATG8-2.2 (potato) [2] = assay: ITC; remark: listed apart in the source

In the case of PiPexRD54 AIM peptide, the Kd (potato ATG8-2.2 (potato) [1]) is reported as 93.8 nM, the Kd (potato ATG8-2.2 (potato) [2]) is reported as 93.9 nM and 116 nM and 35 nM and the stoichiometry N (potato ATG8-2.2 (potato) [2]) is reported as 1.08 and 1.17 and 1.45.
